Pooled drug test results. Numbers come from NIAID ChemDB, via PubChem.

Shared fields: whole-cell or culture tests; species: Rhinovirus

MIC50, MIC90 and the like: level of inhibition, or share of isolates inhibited. ECn: concentration that inhibits the pathogen or its effect by n%. An empty or dashed field is not shown. Lines come from different laboratories, so protocols vary.

SMILES,strain or isolate,cell line,endpoint,method,result
CN(C)c1nc(Cl)nc2c1ncn2Cc1ccc(Cl)cc1,Serotype 31,M-HELA,EC50,plaque count,>5 µM
Cc1ccc(C(=O)CCCCCCOc2ccc(C3=N[C@@H](C)CO3)cc2)s1,TYPE 2,HeLa,EC50,cytopathic effect,1.03 µM
COc1cc(C(=O)Oc2c(-c3ccc(Cl)cc3)oc3ccccc3c2=O)ccc1OC(C)=O,Serotype 14,HeLa,EC50,plaque count,>6.25 µM
CCOC(=O)c1ccc(OCCCCC(=O)c2ccccc2)cc1,Serotype 2,HeLa,EC50,cytopathic effect,4.9 µM
O=C(Oc1c(-c2ccc(Cl)c(Cl)c2)oc2ccccc2c1=O)c1cc(OCc2ccccc2)c(OCc2ccccc2)c(OCc2ccccc2)c1,Serotype 1B,HeLa,EC50,plaque count,>6.25 µM
CSc1nsc(-c2ccc(O)cc2)c1C#N,Serotype 63 (group B),HELA-OHIO,EC50,cytopathic effect,>10 µM
N#Cc1ccc2c(c1)CCC(c1ccccc1)O2,TYPE 1B,HeLa,EC50,cytopathic effect,8 µM
CC(C)S(=O)(=O)c1ccc(Oc2ccc(C(=O)c3ccccc3)cc2)nc1,TYPE 64,HeLa,EC50,cytopathic effect,>5 µg/mL
CCN(CC)c1cc(-c2ccc(OC)cc2OC)on1,Serotype 63 (group B),HeLa,EC50,cytopathic effect,>362 µM
CSc1nsc(-c2ccc(OCc3ccccc3)cc2)c1C#N,Serotype 42 (group A),HELA-OHIO,EC50,cytopathic effect,7 µM
O=C(/C=C/c1ccc(O)c(O)c1)Oc1c(-c2ccc(Cl)cc2)oc2ccccc2c1=O,Serotype 14,HeLa,EC50,plaque count,>6.25 µM
CCOC(=O)c1ccc(OCCCCC(=O)c2ccc(F)cc2)cc1,serotype 1A 1B 2 6 14 15 21 22 25 29 30 41 42 45 59 63 67 70 72 86 89,-,MIC80,-,>290 µM
Cc1ccc(C(=O)CCCCCCOc2ccc(C3=NCCO3)cc2Cl)s1,TYPE 2,HeLa,EC50,cytopathic effect,0.47 µM
CCOC(=O)c1cc(Cl)c(OCCCCC(=O)c2ccc(OC)cc2)c(Cl)c1,serotype 1A 1B 2 6 14 15 21 22 25 29 30 41 42 45 59 63 67 70 72 86 89,-,MIC80,-,>39 µM
CCOC(=O)c1ccc(OCCC2CCN(c3ccc(C)nn3)CC2)cc1,Serotype 3,HeLa,EC50,cytopathic effect,<0.1 µg/mL
CCOC(=O)c1ccc(OCCCCC(=O)c2ccc(C)c(Cl)c2)cc1,Serotype 2,HeLa,EC50,cytopathic effect,>267 µM
O=c1c(O)c(-c2ccc(Cl)c(Cl)c2)oc2ccccc12,Serotype 14,HeLa,EC50,plaque count,1.01 µM
CCOC(=O)c1ccc(OCCC2CCN(c3ccc(C)nn3)CC2)cc1,363 (ICAM-1 receptor group 32),KB,EC50,neutral red,8.13 µM
Cc1ccc(C(=O)CCCCOc2ccc(C3=NC(C)(C)CO3)cc2)s1,TYPE 14,HeLa,EC50,cytopathic effect,0.81 µM
CCOc1cc(OC)ccc1-c1cc(N(CC)CC)no1,Serotype 85 (group B),HeLa,EC50,cytopathic effect,17.5 µM
COC(=O)C(Cc1ccc(OCCCCCCC(=O)c2ccc(C)s2)cc1)NC(C)=O,TYPE 14,HeLa,EC50,cytopathic effect,>83 µM
COc1ccc(-c2snc(SC)c2C#N)cc1,Serotype 51 (group B),HELA-OHIO,EC50,cytopathic effect,>12 µM
CC(C)S(=O)(=O)n1c(N)nc2ccc(C(C(N)=O)c3cccc(F)c3)cc21,1059 (serotype 14),HeLa,EC50,plaque count,0.04 µg/mL
Fc1cccc(Nc2nc(C(F)(F)F)nc3c2ncn3Cc2ccccc2F)c1,Serotype 5,M-HELA,EC50,plaque count,>20 µM
Cc1cc(CCCCCCOc2ccc(C3=NCCO3)cc2)on1,TYPE 2,-,MIC,-,0.1 µg/mL
Cc1ccc(C(=O)CCCCOc2ccc(C3=NCC(C)O3)cc2)s1,TYPE 14,HeLa,EC50,cytopathic effect,1.9 µM
Cc1cc(CCCCCOc2c(Cl)cc(C3=NCCO3)cc2Cl)on1,TYPE 16,HeLa,EC50,plaque count,0.048 µg/mL
c1ccc(C2CCc3cc(C4=NCCO4)ccc3O2)cc1,TYPE 1B,HeLa,EC50,cytopathic effect,40 µM
Cc1nc(CC(O)CO)c2nc[nH]c(=O)n12,TYPE 1A,WI-38,EC50,cytopathic effect,≥300 µg/mL
C#CCOc1cc(OC)ccc1-c1cc(N(CC)CC)no1,Serotype 59 (group B),HeLa,EC50,cytopathic effect,>40 µM
C[C@@]1(O)[C@H](O)[C@@H](COP(=O)(O)OP(=O)(O)OP(=O)(O)O)O[C@H]1n1ccc2c(N)ncnc21,TYPE 2,KB,EC50,neutral red,0.5 µM
CNC(=O)C(c1ccc2nc(N)n(S(=O)(=O)C(C)C)c2c1)c1cccc2ccccc12,1059 (serotype 14),HeLa,EC50,plaque count,0.21 µg/mL
Fc1cccc(Cn2cnc3c(Nc4cccc(F)c4)nc(C(F)(F)F)nc32)c1,Serotype 19,M-HELA,EC50,plaque count,3.6 µM
COc1cc(C(=O)Oc2c(-c3ccc(Cl)cc3)oc3ccccc3c2=O)ccc1O,Serotype 14,HeLa,EC50,plaque count,>6.25 µM
Brc1cnc2c(c1)C=CC(c1ccccc1)O2,TYPE 64,HeLa,EC50,cytopathic effect,>3.47 µM
CN(C)c1ncnc2c1ncn2Cc1ccc(F)cc1,Serotype 1B,M-HELA,EC50,plaque count,>50 µM
Cc1nc(Cc2ccccc2)c2[nH]c(=S)[nH]c(=O)n12,TYPE 1A,WI-38,EC50,cytopathic effect,>100 µg/mL
CNC(=O)C(c1cccc(F)c1)c1ccc2nc(N)n(S(=O)(=O)N3CCOCC3)c2c1,1059 (serotype 14),HeLa,EC50,plaque count,0.05 µg/mL
CCCOc1ccccc1CNC(=O)c1ccc2cnccc2n1,-,-,EC50,plaque count,<0.01 µg/mL
COc1ccc(-c2cc(N3CCCC3)no2)c(O)c1,Serotype 42 (group A),HeLa,EC50,cytopathic effect,>384 µM
CC(=O)Nc1nc2c(CC(O)CO)nc(C)n2c(=O)[nH]1,TYPE 1A,WI-38,EC50,cytopathic effect,>400 µg/mL
Cc1ccc(C(=O)CCCCOc2ccc(C3=NCCO3)cc2)cc1Cl,serotype 1A 1B 2 6 14 15 21 22 25 29 30 41 42 45 59 63 67 70 72 86 89,-,MIC80,-,>269 µM
CN(C)c1cc(-c2ccc(O)cc2O)on1,Serotype 14,HeLa,EC50,cytopathic effect,>227 µM
N#Cc1ccc(OCCCCC(=O)c2ccc(F)cc2)cc1,serotype 1A 1B 2 6 14 15 21 22 25 29 30 41 42 45 59 63 67 70 72 86 89,-,MIC80,-,>35 µM
COc1cc(C(=O)Oc2c(-c3ccc(Cl)c(Cl)c3)oc3ccccc3c2=O)ccc1OC(C)=O,Serotype 1B,HeLa,EC50,plaque count,>1.56 µM
N#Cc1ccc(OCCCCC(=O)c2ccc(Cl)cc2)cc1,serotype 1A 1B 2 6 14 15 21 22 25 29 30 41 42 45 59 63 67 70 72 86 89,-,MIC80,-,>319 µM
CC(C)S(=O)(=O)n1c(N)nc2ccc(C(C(N)=O)c3ccc(F)c(F)c3)cc21,1059 (serotype 14),HeLa,EC50,plaque count,0.05 µg/mL
CS(=O)(=O)c1ccc(Oc2ccc(C(=O)c3ccccc3)cc2)nc1,TYPE 1B,HeLa,EC50,cytopathic effect,>5 µg/mL
COc1cc(/C=C/C(=O)Oc2c(-c3ccc(Cl)c(Cl)c3)oc3ccccc3c2=O)ccc1OC(C)=O,Serotype 14,HeLa,EC50,plaque count,>0.39 µM
Cc1ccc(C(=O)CCCCOc2ccc(C3=NCCO3)cc2)s1,Serotype 2,HeLa,EC50,cytopathic effect,1.3 µM
c1ccc2c(c1)CCC(c1ccc(C3=NCCO3)cc1)O2,TYPE 1B,HeLa,EC50,cytopathic effect,3.58 µM
O=C(CCCCOc1ccc(C2=NCCO2)cc1)c1ccc(F)cc1,Serotype 2,HeLa,EC50,cytopathic effect,>293 µM
c1cc(C2CCc3cc(C4=NCCO4)ccc3O2)ccc1C1=NCCO1,TYPE 1B,HeLa,EC50,cytopathic effect,1.79 µM

Repeating the final 7 entries:

| SMILES | strain or isolate | cell line | endpoint | method | result |
|---|---|---|---|---|---|
| CC(C)S(=O)(=O)n1c(N)nc2ccc(C(C(N)=O)c3ccc(F)c(F)c3)cc21 | 1059 (serotype 14) | HeLa | EC50 | plaque count | 0.05 µg/mL |
| CS(=O)(=O)c1ccc(Oc2ccc(C(=O)c3ccccc3)cc2)nc1 | TYPE 1B | HeLa | EC50 | cytopathic effect | >5 µg/mL |
| COc1cc(/C=C/C(=O)Oc2c(-c3ccc(Cl)c(Cl)c3)oc3ccccc3c2=O)ccc1OC(C)=O | Serotype 14 | HeLa | EC50 | plaque count | >0.39 µM |
| Cc1ccc(C(=O)CCCCOc2ccc(C3=NCCO3)cc2)s1 | Serotype 2 | HeLa | EC50 | cytopathic effect | 1.3 µM |
| c1ccc2c(c1)CCC(c1ccc(C3=NCCO3)cc1)O2 | TYPE 1B | HeLa | EC50 | cytopathic effect | 3.58 µM |
| O=C(CCCCOc1ccc(C2=NCCO2)cc1)c1ccc(F)cc1 | Serotype 2 | HeLa | EC50 | cytopathic effect | >293 µM |
| c1cc(C2CCc3cc(C4=NCCO4)ccc3O2)ccc1C1=NCCO1 | TYPE 1B | HeLa | EC50 | cytopathic effect | 1.79 µM |